From patent EP1184030A1, “Antibacterial composition comprising trimethylnorbornanylcyclohexanol derivatives” (Givaudan SA, priority 2000, dated 2002)

assay: Odor value (vapour pressure divided by olfactive threshold); details: vapour pressure (ng/L) divided by olfactive threshold value (ng/L)

Row | Molecule | odor value
1 | CC1=CCC(CCC(C)C(C)O)C1(C)C (stereo not shown) [Sandalore] | 5685
2 | CC1=CCC(/C=C\C(C)C(C)O)C1(C)C (stereo not shown) [Ebanol] | 212557
3 | CCC(=CCC1CC=C(C)C1(C)C)CO (stereo not shown) [Radjanol] | 53130
4 | Santalol | 650
